Compound potency records, mixed from different reports. Data source: NIAID ChemDB in PubChem.

Common to all: growth or infection tests; organism: Candida glabrata; endpoint: MIC

Conditions beyond the fields shown may differ between rows. An empty or dashed field is not shown.

smiles | strain or isolate | value
CCOC(=O)C1C(=O)C=C(c2ccc(Cl)cc2)CC1c1ccc(C2CC(c3ccc(Cl)cc3)=CC(=O)C2C(=O)OCC)cc1 | Clinical isolate | 6.25 µg/mL
CCCCCCCCCCCCCCC1=NCCCC1 | ATCC 90030 | 20 µg/mL
COc1ccc(C2CC(c3ccc4ccccc4c3)=Cc3[nH][nH]c(=O)c32)cc1 | - | 50 µg/mL
Cc1ccc(/C=N/Nc2ccnc3cc(Cl)ccc23)cc1 | - | 40 µg/mL
OC(Cn1cncn1)(Cn1cncn1)c1ccc(F)cc1F | Clinical isolates | 17.3 µg/mL
CC[C@@H]([C@H](C)O)n1ncn(-c2ccc(N3CCN(c4ccc(OC[C@@H]5CO[C@@](Cn6cncn6)(c6ccc(F)cc6F)C5)cc4)CC3)cc2)c1=O | 03-3245 + 04-1724 | 0.25 µg/mL
O=c1[nH][nH]c2c1C(c1ccc(Br)cc1)CC(c1ccc3ccccc3c1)=C2 | - | 12.5 µg/mL
C[C@@H](N1CCc2nc(-c3ccsc3)sc2C1)[C@](O)(C[n+]1cnc[nH]1)c1ccc(F)cc1F | 537 | 0.5 µg/mL
O/N=C/c1ccc(O)cc1 | - | 7290 µM
O=C(O)c1ccc(C[C@H](C(=O)O)[C@@H](O)C(=O)O)cc1 | DSM 11226 | >4 µg/mL
O/N=C\c1ccc(F)cc1 | - | 7200 µM
COc1cccc2c1C(=O)c1c(O)c3c(c(O)c1C2=O)C[C@@](O)(C(C)=O)C[C@@H]3O[C@H]1C[C@H](N)[C@H](O)[C@H](C)O1 | ATCC 90030 | >100 µM
CCOC(=O)C1C(=O)C=C(c2ccc(OC)cc2)CC1c1ccc(C2CC(c3ccc(OC)cc3)=CC(=O)C2C(=O)OCC)cc1 | Clinical isolate | 6.25 µg/mL
O/N=C\c1ccccc1Cl | - | 2850 µM
CC(=O)[C@]1(O)Cc2c(O)c3c(c(O)c2[C@@H](O[C@H]2C[C@H](N)[C@H](O)[C@H](C)O2)C1)C(=O)c1ccccc1C3=O | ATCC 90030 | 3.63 µM
O=[N+]([O-])c1ccc(/C=N\O)cc1 | - | 3010 µM
CCOC(=O)C1C(=O)C=C(c2ccc(Br)cc2)CC1c1ccc(C2CC(c3ccc(Br)cc3)=CC(=O)C2C(=O)OCC)cc1 | Clinical isolate | 25 µg/mL
O/N=C\c1ccccc1O | - | 1800 µM
CC(C)(CS(=O)(=O)[O-])N(Cl)Cl | 90030 | 16 µg/mL

Again, the opening 2 rows:

smiles	strain or isolate	value
CCOC(=O)C1C(=O)C=C(c2ccc(Cl)cc2)CC1c1ccc(C2CC(c3ccc(Cl)cc3)=CC(=O)C2C(=O)OCC)cc1	Clinical isolate	6.25 µg/mL
CCCCCCCCCCCCCCC1=NCCCC1	ATCC 90030	20 µg/mL